{"source": "ChEMBL document CHEMBL1139704", "about": "“Discovery of potent inhibitors of pseudomonal quorum sensing via pharmacophore modeling and in silico screening” (Bioorg Med Chem Lett, 2006)", "key": {"Pseudomonas aeruginosa [1]": {"system": "Pseudomonas aeruginosa", "test": "Inhibition of pyocyanin production in Pseudomonas aeruginosa", "assay_type": "functional, organism-based", "summary_of_the_method": "(§1)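 Overnight nutrient broth cultures were pelleted, resuspended, grown to mid-log phase (OD600 0.3–0.5), and diluted to OD600 0.05. Cultures were exposed to compound in water at 50.00, 25.00, 10.00, 5.00, 2.50, 1.00, 0.10, 0.001 or zero final concentration, shaken 18 h at 37 C. Viable cells were counted, and the pellet OD600 was used to normalise pigment per bacterial OD unit.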"}, "Pseudomonas aeruginosa [2]": {"system": "Pseudomonas aeruginosa", "test": "Inhibition of pyoverdin production in Pseudomonas aeruginosa", "assay_type": "functional, organism-based", "summary_of_the_method": "as §1"}}, "note": "The source made the active and inactive calls. The rule behind the calls is not given here."}
{"smiles": "CCOP(=O)(Nc1ccccc1Cl)OCC", "values": [{"measurement": "Activity", "setting": "Pseudomonas aeruginosa [1]", "value": "inactive"}, {"measurement": "Activity", "setting": "Pseudomonas aeruginosa [2]", "value": "inactive"}]}
